# Measured values: PMC7114863 (Journal of Hepatology, 2009)
# Columns and labels:
# [1] = system: VX-950^res and BILN-2061^res replicon; experiment: Anti-HCV assay, VX-950 and BILN-2061 double resistant replicon; conditions: mean ± SD
# [2] = system: 2′-C-MeCyt^res replicon; experiment: Anti-HCV assay, 2′-C-MeCyt resistant replicon
# [3] = system: 4′-Azidocytidine^res replicon; experiment: Anti-HCV assay, 4′-azidocytidine resistant replicon
# [4] = system: BILN-2061^res replicon; experiment: Anti-HCV assay, BILN-2061 resistant replicon
substance,measurement,setting,value
IFNα 2b: recombinant IFNα 2b (intron® A) purchased from Schering Plough,"EC50, VX-950^res and BILN-2061^res",[1],0.62 ± 0.37 IU/ml
same,"EC50, 2′-C-MeCyt^res",[2]; mean ± SD,0.80 ± 0.46 IU/ml
same,"fold resistance, 2′-C-MeCyt^res",[2]; versus wild-type replicon,(3.3)
same,"EC50, 4′-Azidocytidine^res",[3]; mean ± SD,1.4 ± 0.29 IU/ml
same,"fold resistance, 4′-Azidocytidine^res",[3]; versus wild-type replicon,(5.8)
same,"EC50, BILN-2061^res",[4]; mean ± SD,1.2 ± 0.83 IU/ml
same,"fold resistance, BILN-2061^res",[4]; versus wild-type replicon,(5)
